Laboratory results: paper PMC7497253 (Chemmedchem, 2020)

Assay: general procedure: peptide synthesis; 2-CTC resin; HBTU/HOBt; HATU/DIPEA for cyclisation
Conditions: whole synthesis, scale ≈125 μmol, TFA salt

PEPTIDE1{G.[3AMPhac].K.K.[dN(Ca)Lys]}$PEPTIDE1,PEPTIDE1,1:R1-5:R2$$$V2.0
isolated yield (based on the loaded Boc-dLys(Fmoc)-2-CTC-resin): 17%
isolated mass: 21.1 mg

Some peptides are written in HELM: one residue between dots, names in brackets for other building blocks, links after the first $.
